≈ marks a conversion by molar mass, not a printed value.
Legend:
Plasmodium falciparum [1] = assay: Antimalarial activity against Plasmodium falciparum K1; type: functional, organism-based
Plasmodium falciparum [2] = assay: Antimalarial activity against Plasmodium falciparum NF54; type: functional, organism-based
Plasmodium falciparum [3] = assay: Antimalarial activity against Plasmodium falciparum W2
Plasmodium falciparum [4] = assay: Antimalarial activity against Plasmodium falciparum D6

Structure (SMILES) | IC50 (Plasmodium falciparum [1]) | IC50 (Plasmodium falciparum [2]) | IC50 (Plasmodium falciparum [3]) | IC50 (Plasmodium falciparum [4])
C1CCC2(CC1)OOC1(CCCCC1)OOC1(CCCCC1)OO2 | 0.77 µg/mL (≈ 2.25 µM) | 2.7 µg/mL (≈ 7.88 µM) | – | –
C1CC2(CCO1)OOC1(CCOCC1)OOC1(CCOCC1)OO2 | > 10 µg/mL | > 10 µg/mL | – | –
C1CCC2(CC1)OOC1(CCCCC1)OO2 | 0.03 µg/mL (≈ 0.131 µM) | 0.044 µg/mL (≈ 0.193 µM) | 0.02 µg/mL (≈ 0.0876 µM) | 0.026 µg/mL (≈ 0.114 µM)
C1CCCC2(CC1)OOC1(CCCCCC1)OOC1(CCCCCC1)OO2 | 2 µg/mL (≈ 5.2 µM) | 3.2 µg/mL (≈ 8.32 µM) | – | –
CCCC1(CCC)OOC(CCC)(CCC)OOC(CCC)(CCC)OO1 | 7.4 µg/mL (≈ 18.9 µM) | > 5.5 µg/mL | – | –
C1CCC2(C1)OOC1(CCCC1)OOC1(CCCC1)OO2 | > 10 µg/mL | > 10 µg/mL | – | –
